In article PMC8281045:

Tested on: GluR-His (Burkholderia glumae BGR1)
Test: EMSA
Settings: 0.75 uM GluR-His, 1 nM labeled DNA; 10 mM Tris-HCl pH 7.5, 100 mM NaCl, 5% glycerol; 1 nM biotin-labeled DNA; 4% polyacrylamide gel; temperature not stated; recombinant protein; protein details: His; label: biotin; letters put together from the description

Sequence	binding result
TCGACGGCGATGGGCCTGCTCGTGGAAGGCAGCGCGCAACGAATGCGCGGCCGCAAGGTCGCAGTGCAATCGGGTTCGGCGGGCCAGATCTTCACGCGGATGAAGGACTGGTTCCTGAGCAATTTCTGAACGGGTTTTGCGCCGGTGCCGGCGGCCGGCGCGCGACGGGAGGTTGCCCGATCTTCCGCCGGATAACGGCCGAGTGGTTATATCTTT (double strand) [ftsZp (ftsZ putative promoter)]	binds
CGTCGCGCTACGCCTGGACGGTCAAGCTGGCAAACGGCCTGGAGATCGAGTTCGGGCGCGAGCGCAACGCGGACACGCTGCCCGATCGCGCGCAACGGCTGGTGGCGGCGTGGCCGGCCGTCACCCAGCGCTGGGGGGCCGACATCGAGTACGCGGACCTGCGCTATCCGAACGGGTTCGCGATTCGCGCGGCAGGCATGCGCTTTCTGAGCGACA (double strand) [ftsAp (ftsA putative promoter)]	binds

Construct, isoform or probe ends are uncertain for at least one entry.
